In patent US20230002477A1 (published 2023):

Target: T1, SARS-CoV-2 spike receptor binding domain (RBD) (Acro, Arg319-Phe541, His-tag) (SARS-CoV-2, UniProt P0DTC2 319-541)
T1 construct: range 319-541
Test: direct ELISA (conclusion)

B1: recombinant human full-length SP-D (hFL-SP-D) (other)
chain: AEMKTYSHRTMPSACTLVMCSSVESGLPGRDGRDGREGPRGEKGDPGLPGAAGQAGMPGQAGPVGPKGDNGSVGEPGPKGDTGPSGPPGPPGVPGPAGREGPLGKQGNIGPQGKPGPKGEAGPKGEVGAPGMQGSAGARGLAGPKGERGVPGERGVPGNTGAAGSAGAMGPQGSPGARGPPGLKGDKGIPGDKGAKGESGLPDVASLRQQVEALQGQVQHLQAAFSQYKKVELFPNGQSVGEKIFKTAGFVKPFTEAQLLCTQAGGQLASPRSAAENAALQQLVVAKNEAAFLSMTDSKTEGKFTYPTGESLVYSNWAPGEPNDDGGSEDCVEIFTNGKWNDRACGEKRLVVCEF
B1: binds.
